Results of unrelated studies side by side (data: NIAID ChemDB).

Shared fields: growth or infection tests; agent: HIV-1; cells: PBMC; endpoint: EC95

ECn: concentration that inhibits the pathogen or its effect by n%. a–b is a range or a potency band. An empty or dashed field is not shown. Rows are shuffled and stem from different studies.

SMILES | strain | changes | method | setting | value
CC[C@H](C)[C@H](C(=O)O)N1C[C@H](CN2CCC(c3cc(Cc4ccc(OC)c(OC)c4)nn3CC)CC2)[C@@H](c2cccc(F)c2)C1 | BaL |  | p24 | 50% human serum | 0.028 µM
C=CCN(C(=O)OCc1ccc([N+](=O)[O-])cc1)C1CCN(CCC(CN(C)S(=O)(=O)c2ccccc2)c2ccccc2)CC1 | YU2 |  | p24 |  | 0.2 µM
CCCN(C(=O)OCc1ccc([N+](=O)[O-])cc1)C1CCN(CC[C@H](CN(C)S(=O)(=O)c2ccccc2)c2ccccc2)CC1 | YU-2 (M-tropic) |  | p24 |  | 0.1 µM
CC(C)CN(C[C@@H](O)[C@H](Cc1ccccc1)NC(=O)[C@H](CC(N)=O)NC(=O)c1ccc2ccccc2n1)C(=O)NC(C)(C)C | Isolate A PR L10V/T12I/G16E/R57K/I64V | PR-L10V T12I G16E R57K I64V | p24 |  | 0.2 µM
COC(=O)N(CC1CCCCC1)C1CCN(CCC(CN(C)S(=O)(=O)c2ccccc2)c2ccccc2)CC1 | YU2 |  | p24 |  | 25 µM
CN(C[C@@H](CCN1CCC2(CC1)CS(=O)c1ccccc12)c1ccc(Cl)c(Cl)c1)S(=O)(=O)c1ccccc1 | YU-2 (M-tropic) |  | p24 |  | 6–12 µM
O=C(O)[C@@H](CC1CCC1)N1C[C@H](CN2CCC(CCCc3ccccc3)CC2)[C@@H](c2ccccc2)C1 | BaL |  |  |  | 0.008 µM
C=CCN(C(=O)OCc1ccccc1)C1CCN(CC[C@](C)(CN(C)S(=O)(=O)c2ccccc2)c2ccccc2)CC1 | YU-2 (M-tropic) |  | p24 |  | ~0.075 µM
CN(CC(CCN1CCC2(CC1)CS(=O)c1ccccc12)c1ccccc1)S(=O)(=O)c1ccccc1 | M-tropic YU-2 |  | p24 / antigen |  | 0.8 µM
CN(C[C@@H](CCN1CCC(CCCc2ccccc2)CC1)c1cccc(Cl)c1)S(=O)(=O)c1ccccc1 | YU-2 (M-tropic) |  | p24 |  | 12.5 µM
O=C(O)[C@@H](C1CCCCC1)N1C[C@H](CN2CCC(O)(CCCc3ccccc3)CC2)[C@@H](c2ccccc2)C1 | BaL |  |  |  | 0.187 µM
CN(C[C@@H](CCN1CCC2(CC1)CS(=O)c1ccccc12)c1cccc(Cl)c1)S(=O)(=O)c1ccccc1 | YU-2 (M-tropic) |  | p24 |  | 12.5 µM
CN(C[C@@H](CCN1CCC2(CC1)CS(=O)(=O)c1ccccc12)c1cccc(Cl)c1)S(=O)(=O)c1ccccc1 | M-tropic YU-2 |  | p24 / antigen |  | 8 µM
CCCN(C(=O)Nc1ccccc1)C1CCN(CCC(CN(C)S(=O)(=O)c2ccccc2)c2ccccc2)CC1 | YU-2 (M-tropic) |  | p24 |  | 6 µM
CN(C[C@@H](CCN1CCC2(CC1)CS(=O)c1ccccc12)c1cccc(Cl)c1)S(=O)(=O)c1ccccc1 | M-tropic YU-2 |  | p24 / antigen |  | 1.5 µM
CCN(C(=O)OCc1ccccc1)C1CCN(CC[C@](C)(CN(C)S(=O)(=O)c2ccccc2)c2ccccc2)CC1 | YU-2 (M-tropic) |  | p24 |  | ~0.5 µM
CCN(C(=O)OCc1ccccc1)C1CCN(CCC(CN(C)S(=O)(=O)c2ccccc2)c2ccccc2)CC1 | YU-2 (M-tropic) |  | p24 |  | 12.5 µM
C=CCN(C(=O)Cc1ccc([N+](=O)[O-])cc1)C1CCN(CCC(CN(C)S(=O)(=O)c2ccccc2)c2ccccc2)CC1 | YU2 |  | p24 |  | 0.05 µM
CCn1nc(Cc2ccc(C#N)cc2)cc1C1CCN(C[C@H]2CN([C@@H](C(=O)O)C(C)(C)C)C[C@@H]2c2cccc(F)c2)CC1 | BaL |  | p24 |  | 0.0019 µM

A second listing of 2 rows from above:

{"SMILES": "CC(C)CN(C[C@@H](O)[C@H](Cc1ccccc1)NC(=O)[C@H](CC(N)=O)NC(=O)c1ccc2ccccc2n1)C(=O)NC(C)(C)C", "strain": "Isolate A PR L10V/T12I/G16E/R57K/I64V", "changes": "PR-L10V T12I G16E R57K I64V", "method": "p24", "value": "0.2 µM"}
{"SMILES": "COC(=O)N(CC1CCCCC1)C1CCN(CCC(CN(C)S(=O)(=O)c2ccccc2)c2ccccc2)CC1", "strain": "YU2", "method": "p24", "value": "25 µM"}